Compound potency records, mixed from different reports. Data source: NIAID ChemDB in PubChem.

All rows: toxicity to cultured cells; cells: HepG2.2.15; measure: CC50

An empty or dashed field is not shown. CCn: concentration that lowers growth or viability of the cells by n%. Conditions beyond the fields shown may differ between rows.

{"SMILES": "CC(=O)O[C@H]1C[C@@H]2C(=CC[C@@H]3[C@@]2(C)C(=O)C[C@]2(C)C([C@@](C)(O)C(=O)CCC(C)(C)OC(C)=O)[C@H](O)C[C@@]32C)C(C)(C)[C@@H]1OC(C)=O", "value": "546.2 µM"}
{"SMILES": "CCOC(=O)C1=C(CN2CCCCC2)NC(c2c(F)cc(F)cc2F)=NC1c1ccc(F)cc1Cl", "read by": "MTT", "value": "25.21 µM"}
{"SMILES": "COC(=O)C1=C(CN2CC(F)(F)[C@H]3[C@@H]2CCN3C[C@@](C)(O)C(=O)O)NC(c2nccs2)=N[C@H]1c1cccc(F)c1F", "read by": "WST / absorbance", "value": ">100 µM"}
{"SMILES": "CCOC(=O)c1c(CSc2cccc(OC)c2)nc2c(O)c(CN3CCCCC3)c(Br)cn12", "read by": "MTT", "value": "20.5 µM"}
{"SMILES": "Cc1ccc(CNc2ccc3cc[nH]c3c2)s1", "read by": "MTT", "value": ">28.87 µM"}
{"SMILES": "C[C@H](C[C@H](OC(=O)c1ccccc1)[C@@H](OC(=O)c1ccccc1)C(C)(C)OC(=O)c1ccccc1)C1=C2C[C@H](OC(=O)c3ccccc3)[C@H]3[C@@]4(C)CCC(=O)C(C)(C)[C@@H]4CC[C@]3(C)[C@@]2(C)CC1", "value": ">1400 µM"}
{"SMILES": "CCOC(=O)c1c(CSc2cccc(OC)c2)nc2c(O)c(CN3CCCC3)c(Br)cn12", "read by": "MTT", "value": "51.4 µM"}
{"SMILES": "CCOCC1=C(C(=O)OCC)C(c2ccc(F)cc2Cl)N=C(c2ncc(F)cc2F)N1", "value": ">10 µM"}
{"SMILES": "CC(=O)OC(C)(C)[C@H](OC(=O)c1ccccc1)[C@H](C[C@@H](C)C1=C2C[C@H](OC(=O)c3ccccc3)[C@H]3[C@@]4(C)CCC(=O)C(C)(C)[C@@H]4CC[C@]3(C)[C@@]2(C)CC1)OC(=O)c1ccccc1", "value": ">1700 µM"}
{"SMILES": "CCOCC(=O)O[C@H]1C[C@@H]2C(=CC[C@@H]3[C@@]2(C)C(=O)C[C@]2(C)C([C@@](C)(O)C(=O)CCC(C)(C)OC(=O)COCC)[C@H](OC(=O)COCC)C[C@@]32C)C(C)(C)[C@@H]1OC(=O)COCC", "value": ">1450 µM"}
{"SMILES": "CCOC(=O)C1=C(CN2CC(F)(F)[C@H]3[C@@H]2CCN3C[C@@H](F)C(C)(C)C(=O)O)NC(c2nc(C)cs2)=N[C@H]1c1cccc(F)c1Cl", "read by": "WST / absorbance", "value": "29.8 µM"}
{"SMILES": "CCOC(=O)c1c(CSc2ccc(Br)cc2)nc2c(O)c(CN3CCN(C)CC3)c(Br)cn12", "read by": "MTT", "value": "31 µM"}
{"SMILES": "C=C(C)[C@H](CC)CC[C@@H](C)C1CCC2C3CC=C4C[C@@H](O)CC[C@]4(C)C3CC[C@@]21C", "read by": "MTT", "value": "113.8 µM"}
{"SMILES": "COC(=O)C1=C(CN2CC(F)(F)[C@H]3[C@@H]2CCN3CC[C@](C)(O)C(=O)O)NC(c2nccs2)=N[C@H]1c1ccc(F)c(F)c1F", "read by": "WST / absorbance", "value": ">100 µM"}
{"SMILES": "CCOC(=O)c1c(CSc2ccc(C)cc2)nc2c(O)c(CN3CCCC3)c(Br)cn12", "read by": "MTT", "value": "25.2 µM"}
{"SMILES": "COCCC1=C(C(=O)OC)[C@H](c2ccc(F)cc2Cl)N=C(c2ncc(F)cc2F)N1", "value": "38 µM"}
{"SMILES": "O=C(CNC(=O)Nc1cccc(F)c1)Nc1ccc(Cl)nc1Cl", "read by": "MTS", "value": "259 µM"}
{"SMILES": "CC(=O)OC(C)(C)[C@H](OC(=O)C(C)C)[C@H](C[C@@H](C)C1=C2C[C@H](OC(=O)C(C)C)[C@H]3[C@@]4(C)CCC(=O)C(C)(C)[C@@H]4CC[C@]3(C)[C@@]2(C)CC1)OC(=O)C(C)C", "value": ">1900 µM"}
{"SMILES": "CCOC(=O)C1=C(CN2CCN(C)CC2)NC(c2c(F)cc(F)cc2F)=NC1c1ccc(F)cc1Cl", "read by": "MTT", "value": "98.74 µM"}
{"SMILES": "O=C(CNC(=O)c1ccc(F)cc1)Nc1ccc(Cl)nc1Cl", "read by": "MTS", "value": "144 µM"}
{"SMILES": "CCOC(=O)c1c(CSc2ccc(F)cc2)nc2c(O)c(CN3CCCC3)c(Br)cn12", "read by": "MTT", "value": "35.3 µM"}
{"SMILES": "C=C(C)[C@@H](CC)CC[C@@H](C)[C@H]1CCC2C3C[C@@H](O)[C@@]4(O)C[C@@H](O)CC[C@]4(C)C3CC[C@@]21C", "read by": "MTT", "value": "17.1 µM"}
{"SMILES": "Cc1cn([C@H]2OC(C)(CO)[C@H](O)[C@@H]2O)c(=O)[nH]c1=O", "value": ">100 µM"}
{"SMILES": "Nc1nc2c(ncn2[C@H]2CC[C@@H](CO)O2)c(=O)[nH]1", "value": "219 µM"}
{"SMILES": "CN(C)S(=O)(=O)NCC(=O)Nc1ccc(Cl)nc1Cl", "read by": "MTS", "value": "142 µM"}
{"SMILES": "CC(=O)O[C@H]1C[C@H]2[C@]3(C)C(=O)C[C@]4(C)C([C@@](C)(O)C(=O)CCC(C)(C)OC(C)=O)[C@H](OC(C)=O)C[C@@]4(C)[C@@H]3C[C@H]3O[C@]32C(C)(C)[C@@H]1OC(C)=O", "value": ">960.9 µM"}
{"SMILES": "C[C@]1(CO)O[C@@H](n2cnc3c(=O)[nH]c(N)nc32)[C@H](O)[C@@H]1O", "value": ">100 µM"}
{"SMILES": "CCC(=O)O[C@@H](C[C@@H](C)[C@]12CC[C@@]3(C)[C@@]1(C[C@H](OC(=O)CC)[C@H]1[C@@]4(C)CCC(=O)C(C)(C)[C@@H]4CC[C@@]13C)O2)[C@@H](OC(=O)CC)C(C)(C)OC(=O)CC", "value": ">2200 µM"}
{"SMILES": "COC(=O)C1=C(CN2CC(F)(F)[C@@H]3[C@H]2CON3C[C@@H](F)C(C)(C)C(=O)O)NC(c2nccs2)=N[C@H]1c1ccc(F)c(F)c1C", "read by": "WST / absorbance", "value": "45.7 µM"}
{"SMILES": "C[C@H](C[C@H](OC(=O)CN1C(=O)c2ccccc2C1=O)[C@@H](OC(=O)CN1C(=O)c2ccccc2C1=O)C(C)(C)OC(=O)CN1C(=O)c2ccccc2C1=O)C1=C2C[C@H](OC(=O)CN3C(=O)c4ccccc4C3=O)[C@H]3[C@@]4(C)CCC(=O)C(C)(C)[C@@H]4CC[C@]3(C)[C@@]2(C)CC1", "value": ">1300 µM"}
{"SMILES": "CCC(=O)O[C@H]1C[C@H]2[C@]3(C)C(=O)C[C@]4(C)C([C@@](C)(O)C(=O)CCC(C)(C)OC(C)=O)[C@H](OC(=O)CC)C[C@@]4(C)[C@@H]3C[C@H]3O[C@]32C(C)(C)[C@@H]1OC(=O)CC", "value": ">1667 µM"}
{"SMILES": "CCOC(=O)c1c(CSc2ccc(F)cc2)nc2c(O)c(CN(C)C)c(Br)cn12", "read by": "MTT", "value": "166.4 µM"}
{"SMILES": "CCCCCCCCCCCCCCCC(=O)O", "read by": "MTT", "value": "1560 µM"}
{"SMILES": "CCOCC(=O)O[C@H]1C[C@@H]2C(=CC[C@@H]3[C@@]2(C)C(=O)C[C@]2(C)C([C@@](C)(O)C(=O)CCC(C)(C)O)[C@H](OC(=O)COCC)C[C@@]32C)C(C)(C)[C@@H]1OC(=O)COCC", "value": "184.5 µM"}
{"SMILES": "CCOCC1=C(C(=O)OCC)C(c2ccc(F)cc2Br)N=C(c2ncccc2F)N1", "value": ">12 µM"}
{"SMILES": "CCCC(=O)O[C@H]1C[C@@H]2C(=CC[C@@H]3[C@@]2(C)C(=O)C[C@]2(C)C([C@@](C)(O)C(=O)CCC(C)(C)OC(C)=O)[C@H](O)C[C@@]32C)C(C)(C)[C@@H]1O", "value": "12.4 µM"}
{"SMILES": "CCOC(=O)C1=C(CN2CC(F)(F)[C@@H]3[C@H]2CON3C[C@H](O)C(C)(C)C(=O)O)NC(c2nccs2)=N[C@H]1c1cccc(F)c1F", "read by": "WST / absorbance", "value": ">100 µM"}
{"SMILES": "CC1(CO)O[C@H](n2cnc3c(N)ncnc32)[C@@H](O)[C@H]1O", "value": ">100 µM"}
{"SMILES": "CCCC(=O)O[C@H]1C[C@H]2[C@]3(C)C(=O)C[C@]4(C)C([C@@](C)(O)C(=O)CCC(C)(C)OC(C)=O)[C@H](OC(=O)CCC)C[C@@]4(C)[C@@H]3C[C@H]3O[C@]32C(C)(C)[C@@H]1OC(=O)CCC", "value": ">617.6 µM"}

A second listing of 5 rows from above:

SMILES	read by	value
CCCCCCCCCCCCCCCC(=O)O	MTT	1560 µM
COC(=O)C1=C(CN2CC(F)(F)[C@H]3[C@@H]2CCN3CC[C@](C)(O)C(=O)O)NC(c2nccs2)=N[C@H]1c1ccc(F)c(F)c1F	WST / absorbance	>100 µM
CCC(=O)O[C@H]1C[C@H]2[C@]3(C)C(=O)C[C@]4(C)C([C@@](C)(O)C(=O)CCC(C)(C)OC(C)=O)[C@H](OC(=O)CC)C[C@@]4(C)[C@@H]3C[C@H]3O[C@]32C(C)(C)[C@@H]1OC(=O)CC	-	>1667 µM
CN(C)S(=O)(=O)NCC(=O)Nc1ccc(Cl)nc1Cl	MTS	142 µM
O=C(CNC(=O)Nc1cccc(F)c1)Nc1ccc(Cl)nc1Cl	MTS	259 µM